Measurements reported in PubChem BioAssay AID504761 (Drosophila RNAi Screening Center, 2011).

- Test: 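Insect host genes that dengue virus relies on to spread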 (primary screen)
- System: D.Mel-2 cells from Drosophila
- Reagents: long dsRNA against Drosophila genes
- Treatment: infection with dengue virus type 2; dose and infection time not stated
- Measured: 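Cells stained for dengue envelope protein and imaged; percent of infected cells per well on duplicate plates, ranked by infection, with stained nuclei counted for cell number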
- Scale: infection score: higher = more virus-infected cells; cell count: higher = more cells in the well
- Rule for the call: 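Very low infection ranking in both replicate wells (chance probability at most 0.065), then a retest showing infection dropped 1.5-fold or more at p below 0.05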
- Meaning of the calls: active = confirmed: knock-down lowers infection; inactive = not picked or not confirmed
The deposit covers about 22,000 reagents; this is an unselected part of those with a known target gene and a result. Of all reagents, 116 (0.52%) were called active. 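Calls depend on retest data that are not deposited; infection was ranked per plate without normalising between plates; the unit of the infection score is not given.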 The raw values are shown without normalisation. Not stated in the record: the amount of reagent, the time to read-out.

| gene | dsRNA | infection score, replicate 1 | infection score, replicate 2 | cell count, replicate 1 | cell count, replicate 2 | Outcome |
| --- | --- | --- | --- | --- | --- | --- |
| TyrRS | DRSC10430 | 6.97 | 13.4 | 5965 | 5838 | inactive |
| TyrRS | DRSC27145 | 4.39 | 5.93 | 6328 | 6254 | inactive |
| CG7741 | DRSC07035 | – | 8.86 | 477 | 1276 | inactive |
| tei | DRSC07616 | 16.8 | 7.08 | 6253 | 6257 | inactive |
| tei | DRSC23756 | 4.78 | 0.4 | 5986 | 6059 | inactive |
| fkh | DRSC16949 | 6.98 | – | 6658 | 352 | inactive |
| fkh | DRSC28213 | 2.43 | – | 782 | 393 | inactive |
| CG2747 | DRSC15450 | 3.57 | 6.81 | 6507 | 6642 | inactive |
| St2 | DRSC15142 | 6.05 | 9.58 | 6432 | 6722 | inactive |
| St2 | DRSC22624 | 1.72 | 19.7 | 6729 | 5686 | inactive |
| GILT2 | DRSC14196 | 2.82 | 6.77 | 6959 | 7049 | inactive |

Next part (2 carried over from the part before).
| gene | dsRNA | infection score, replicate 1 | infection score, replicate 2 | cell count, replicate 1 | cell count, replicate 2 | Outcome |
| --- | --- | --- | --- | --- | --- | --- |
| St2 | DRSC22624 | 1.72 | 19.7 | 6729 | 5686 | inactive |
| GILT2 | DRSC14196 | 2.82 | 6.77 | 6959 | 7049 | inactive |
| CG7453 | DRSC20046 | 8.09 | 1.08 | 5807 | 5574 | inactive |
| CG7453 | DRSC24580 | 5.56 | 2.05 | 6300 | 6108 | inactive |
| CG15044 | DRSC19620 | 32.8 | 24 | 5815 | 5966 | inactive |
| CG15044 | DRSC21385 | 1.72 | 4.04 | 6089 | 6344 | inactive |
| CG15044 | DRSC28226 | 6.27 | 14.9 | 1419 | 5360 | inactive |
| Teh2 | DRSC08458 | 2.71 | 3.19 | 6020 | 5805 | inactive |
| Teh2 | DRSC29037 | 7.56 | 13.1 | 1336 | 1423 | inactive |
| Sb | DRSC16851 | 5.66 | 26.4 | 6164 | 5383 | inactive |
| Sb | DRSC29250 | 14.3 | 16.2 | 4214 | 5981 | inactive |
| CG14316 | DRSC14795 | 1.31 | 0.94 | 6855 | 6586 | inactive |
| tzn | DRSC11755 | 4.78 | 17.6 | 6500 | 6404 | inactive |
| CG11596 | DRSC18540 | 2.48 | – | 6568 | 95 | inactive |
| CG11596 | DRSC28643 | 16.3 | 4.94 | 5004 | 4412 | inactive |
